In the supplement of paper PMC9931576:
Changes are numbered by the printed parent chain. Human monoclonal antibodies against the spike receptor-binding domain (heavy:light variable regions). IC50 against pseudoviruses bearing the spike of naturally observed variants; lower = stronger; >10 µg/ml means not reached at the top dose. No active / inactive call. The stated detection limit is 0.0005 µg/ml; values near or below 0.001 µg/ml lie at the floor of the assay.

B1: BD57-0387 (protein)
chain 1: EVQLVQSGAEVKKPGESLRISCKGSGYSFTTYWIGWVRQMPGKGLEWMGIIYPGDSETTYSPTFRGQVTISADKSINTAYLQWSSLTASDTAMYYCARRSGSGSFPSLDYWGQGTPVTVSS
chain 2: DIQMTQSPSSLSASVGDRITITCRASQSISSYLNWYQQKPGKVPQLLIYGASSLQSGVPSRFRGSGSGTDFTLTIRSLQPEDFATYYCQQSYSTMALTFGGGTKVEIK
B2: BD57-0388 (protein)
chain 1: QVQLVQSGAEVKRPGASVTVSCKASGYSFSSYAISWLRQAPEQGPEWMGWINTHSGDTNFAQKFQGRVTMTTDTSTSTAYMALRSLTSDDTAVYYCARGVLERFMNMIVAPGSFDQWGQGTLVTVSS
chain 2: DIQMTQSPSTLSASVGDRVTITCRASQSISDWLAWYQQKPGKAPKLLIYKASSFESGVPSRFRGSGSGTEFTLTISSLQPDDFATYYCQQYKTSTYTFGQGTRLEIK
B3: BD57-0389 (protein)
chain 1: QVQLVESGGGVVQPGRSLRLSCAASGFTFSNYGMHWVRQAPGKGPEWVALISYDGSDKYYGDSVKGRFTISRDSSKNTLFLQMNSLRAEDTAVYYCAKGPWYSSSWEYYFEYWGQGTLVTVSS
chain 2: DIQMTQSPSSLSASLGDRVTITCRASQTISTFLNWYQQKPGKAPNLLIYDVSSLQSGVPSRFSGSGSGTDFTLTISSMQPEDFATYYCQQSYSIPLTFGGGTKLEIK
B4: BD57-0393 (protein)
chain 1: B3 chain 1 with S30K, S56G
chain 2: B3 chain 2 with S30G, V51A, M78L, L104M
B5: BG7-15 (protein)
chain 1: QVQLVQSGAEVKKPGASVKVSCKASGYTFTSYAISWVRQAPGQGLEWMGWVSAYNGNTNYAQKLQGRVTMTTDTSTNTAYMELRSLRSDDTAIYYCAIPYSSVTFDCWGQGTLVTVSS
chain 2: EIVLTQSPGTLSLSPGERATLSCRASQSVSGTFLAWYQQKPGQAPRLLISGASSRATGIPDRFSGSGSGTDFTLTISRLEPEDFAVYYCQQYGSSRPTFGQGTKLEIK
B6: BD57-0410 (protein)
chain 1: EVQLVESGGGLVKPGGSLRLSCAASGFTFSNAWMTWVRQAPGTGLEWVGRIKSKIDGGTTDYAASVKGRFTISRDDSKNRLYLQMNSLKTEDTAVYYCATVSPLQFWLVGEDNALDIWGQGTMVTVSP
chain 2: DIVLTQSPGTLSLSPGERATLSCRASQSVSSSYLAWYQQKPGQAPRLLIYGALSRAAGIPDRFSGSGSGTDFTLTITRLEPEDFAVYYCQHYDISSQTFGQGTKVEIK
B7: BD57-0412 (protein)
chain 1: QITLKESGPTLVKPTRTLTLTCTFSGFSLTTSGVGVGWIRQPPGKALEWLALIYWDGDERYSPSLKSRLTITKDTSKNQVVLTMTNMGPVDTATYYCGHHTIPTIFDYWGQGTLVTVSS
chain 2: QSALTQPASVSGSPGQSITISCTGAYSDVGAYNYVSWYQQHPGKAPKLVIYDVTNRPSGVSDRFSGSKSGYTASLTISGLQAEDEADYYCSSYTTSSLLVFGGGTKLTVL

Assays:
Test in all cases: pseudovirus neutralization IC50; higher = weaker neutralization
[1] = molecular target: SARS-CoV-2 Omicron BA.1 spike pseudovirus
Description: (§1)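 Single-round VSV luciferase pseudovirus mixed with antibody dilutions for 1 h and put on Huh-7 cells for about a day; IC50 from the dose curve.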

[2] = molecular target: SARS-CoV-2 Omicron BA.2 spike pseudovirus
Description: as §1

[3] = molecular target: SARS-CoV-2 Omicron BA.2.75 spike pseudovirus
Description: as §1

[4] = molecular target: SARS-CoV-2 Omicron BA.5 spike pseudovirus
Description: as §1

[5] = molecular target: SARS-CoV-2 Omicron BQ.1.1 spike pseudovirus
Description: as §1

[6] = molecular target: SARS-CoV-2 Omicron XBB spike pseudovirus
Description: as §1

[7] = molecular target: SARS-CoV-2 early D614G spike pseudovirus
Description: as §1

| Binder | pseudovirus neutralization IC50 [1] | pseudovirus neutralization IC50 [2] | pseudovirus neutralization IC50 [3] | pseudovirus neutralization IC50 [4] | pseudovirus neutralization IC50 [5] | pseudovirus neutralization IC50 [6] | pseudovirus neutralization IC50 [7] |
| --- | --- | --- | --- | --- | --- | --- | --- |
| B1 | 1.44 µg/mL | 1.93 µg/mL | 1.65 µg/mL | > 10 µg/mL | > 10 µg/mL | > 10 µg/mL | > 10 µg/mL |
| B2 | > 10 µg/mL | > 10 µg/mL | > 10 µg/mL | > 10 µg/mL | > 10 µg/mL | > 10 µg/mL | > 10 µg/mL |
| B3 | 1.49 µg/mL | 3.16 µg/mL | 3.28 µg/mL | 3.76 µg/mL | 1.33 µg/mL | 1.21 µg/mL | > 10 µg/mL |
| B4 | 3.74 µg/mL | 1.65 µg/mL | 1.67 µg/mL | 3.21 µg/mL | 3.74 µg/mL | 1.77 µg/mL | > 10 µg/mL |
| B5 | > 10 µg/mL | 0.543 µg/mL | > 10 µg/mL | 0.889 µg/mL |  | > 10 µg/mL | 0.0015 µg/mL |
| B6 | 9.64 µg/mL | 7.18 µg/mL | 9.5 µg/mL | 7.56 µg/mL | > 10 µg/mL | > 10 µg/mL | > 10 µg/mL |
| B7 | 2.85 µg/mL | 0.00482 µg/mL | 3.34 µg/mL | 0.00399 µg/mL | > 10 µg/mL | > 10 µg/mL | 0.000243 µg/mL |
